This note sets out measurements from publication PMC3236198, “Chimeras of Escherichia coli and Mycobacterium tuberculosis Single-Stranded DNA Binding Proteins: Characterization and Function in Escherichia coli” (PLoS ONE, 2011).

A word on the stoichiometry N: it is the number of molecules, sites or subunits per partner or assembly.

The data set “native gel or EMSA” deals with the molecule itself. In words: native gel or EMSA. (A gel shift assay detects complexes by their altered migration in electrophoresis.)
The data set “SEC” deals with the molecule itself. Briefly: SEC. (In gel filtration, larger molecules generally elute earlier.)

B1: mβ1′β2_(ESWR) SSB (other)
chain: MASRGVNKVILVGNLGQDPELRFTPSGAAVANFTVASTESWRDRQTGEMKEQTEWHRVVLFGKLAEVASEYLRKGSQVYIEGQLRTRKWTDQSGQDRYTTEVVVNVGGTMQMLGGRQGGGAPAGGNIGGGQPQGGWGQPQQPQGGNQFSGGAQSRPQQSAPAAPSNEPPMDFDDDIPF
On to B1, for which, in “native gel or EMSA”, the “stoichiometry N” value amounted to 4.

B2: mβ1′β2 SSB (other)
chain: MASRGVNKVILVGNLGQDPELRFTPSGAAVANFTVASTPRIYDRQTGEMKEQTEWHRVVLFGKLAEVASEYLRKGSQVYIEGQLRTRKWTDQSGQDRYTTEVVVNVGGTMQMLGGRQGGGAPAGGNIGGGQPQGGWGQPQQPQGGNQFSGGAQSRPQQSAPAAPSNEPPMDFDDDIPF
Regarding B2, the “stoichiometry N” value in the data set “SEC” amounted to 4.
